## Potato spindle tuber viroid, loop 6: variant abundance in plants

Data from the supplement of Wu et al. 2024, doi:10.1371/journal.ppat.1012142.

PSTVd intermediate strain, loop 6: wild type UGACCGCGAG, pool pattern UNNNCGNNNG; upper and lower strand joined, each 5' to 3', the first 5 letters being the upper strand, closing pairs included.

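Three N. benthamiana plants were inoculated with the whole mutant pool. Progeny were sequenced from the inoculated region (day 5), the margin of the inoculated leaf (day 10) and systemic leaves (day 12).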

Numbers give reads per thousand; 0 = not seen among the reads, higher = more abundant.
Each site shows the three plants.
"Pool" is the share in the plasmid pool used as inoculum, on the same scale.
The inoculated region was read from the minus strand, the other sites from the plus strand.
With 36,220-57,551 reads a sample, very low values are single reads.
For reference, wild type rose from 20.7 per thousand in the pool to 195, 198, 203 (inoculated region), 629, 591, 734 (leaf margin) and 942, 870, 868 (systemic leaves).
Sequences that differ at fixed positions probably stem from PCR or sequencing errors, and defective variants can be carried along by functional ones.

sequence	pool	inoculated region	leaf margin	systemic leaves
UUGCCGGACG	0.131	0.0869 0.0359 0.0738	0 0 0	0 0 0
UUGCCGGAGA	0.0131	0 0 0	0 0 0	0 0 0
UUGCCGGAGG	0.275	0.104 0.0898 0.0553	0 0 0	0 0 0.0205
UUGCCGGAGU	0.0131	0 0 0	0 0 0	0 0 0
UUGCCGGAUG	0.222	0.104 0.162 0.0738	0.0276 0 0	0 0 0
UUGCCGGCAG	0.209	0.104 0.108 0.0553	0 0 0	0 0 0
UUGCCGGCCG	0.183	0.0521 0.144 0.0184	0 0 0	0 0 0
UUGCCGGCGG	0.222	0.0869 0.180 0.0369	0 0 0	0 0 0
UUGCCGGCUG	0.340	0.139 0.0719 0.0184	0 0 0	0 0 0
UUGCCGGGAG	0.261	0.191 0.108 0.184	0 0 0	0 0 0
UUGCCGGGCG	0.157	0.104 0.0539 0.0369	0.0276 0 0.0464	0 0 0
UUGCCGGGGG	0.235	0.0695 0.0719 0.0369	0 0 0	0 0 0
UUGCCGGGUG	0.235	0.0869 0.0719 0.0553	0 0 0	0 0 0
UUGCCGGGUU	0.0131	0 0 0	0 0 0	0 0 0
UUGCCGGUAG	0.418	0.156 0.0898 0.0369	0 0 0	0 0 0
UUGCCGGUCG	0.301	0.0695 0.108 0.0922	0 0 0.0232	0 0 0
UUGCCGGUGA	0.0131	0 0 0	0 0 0	0 0 0
UUGCCGGUGG	0.209	0.156 0.144 0.0184	0 0.0252 0	0.0359 0 0
UUGCCGGUUG	0.209	0.191 0.0898 0.0738	0 0 0.0232	0 0 0
UUGCCGUAAG	0.0915	0.104 0.0898 0.111	0 0 0.0232	0 0 0
UUGCCGUACG	0.275	0.209 0.0180 0.0369	0 0 0	0 0 0
UUGCCGUAGG	0.261	0.191 0.108 0.0922	0 0 0.0232	0 0 0
UUGCCGUAUG	0.405	0.0695 0.0719 0.0738	0.276 0 0.0232	0 0 0
UUGCCGUCAG	0.366	0.0695 0.0898 0.0184	0 0 0.0464	0 0 0
UUGCCGUCCG	0.288	0.139 0.0898 0.0922	0 0.151 0.0232	0 0 0
UUGCCGUCGG	0.405	0.0695 0.108 0.0922	0 0.0252 0	0 0 0
UUGCCGUCUG	0.824	0.104 0.126 0.129	0.0276 0.126 0	0 0 0
UUGCCGUGAG	0.379	0.869 0.719 0.387	0.0552 0.151 0.139	0 0 0
UUGCCGUGCG	0.157	0.0521 0.0719 0.0553	0 0 0.0232	0 0 0
UUGCCGUGGG	0.196	0.139 0.0539 0.0553	0 0 0.0232	0 0 0
UUGCCGUGUG	0.405	0.0869 0.126 0.0922	0 0 0.0232	0 0 0
UUGCCGUUAG	0.392	0.191 0.180 0.111	0.0276 0 0	0 0 0
UUGCCGUUCG	0.458	0.0521 0.0539 0.0922	0.0276 0 0.0232	0 0 0
UUGCCGUUGG	0.248	0.0695 0.0719 0.0553	0 0 0	0 0 0
UUGCCGUUUG	0.405	0.139 0.144 0.148	0.0552 0 0.0232	0 0 0
UUGCCUGUGG	0.0131	0 0 0	0 0 0	0 0 0
UUGGAGCCAG	0.0131	0 0 0	0 0 0	0 0 0
UUGGCGAAAG	0.327	0.139 0.0719 0.0738	0 0 0	0 0 0

Extract of 2 entries:

UUGCCGUGAG (pool 0.379): inoculated region 0.869 0.719 0.387; leaf margin 0.0552 0.151 0.139; systemic leaves 0 0 0.
UUGCCGGCCG (pool 0.183): inoculated region 0.0521 0.144 0.0184; leaf margin 0 0 0; systemic leaves 0 0 0.